# Data as given in article PMC8530329 (PLoS Pathogens, 2021).
# B1: RBD-chAb-45 (antibody, V domains shown)
# VH: EVQLQQSGPELVKPGASVKISCKTSGYTFTEYTIYWVKQSLGKSLEWIGGNNPNNDDTTYKQFFKGKATLTVDKSSSTAYMELRSLTSEDSAVYYCARDGYPYYYALDFWGQGTSVTVSS
# VL: DIVMTQSQKFMSTSVGDRVSVTCKSSQNVGTNVAWYQQKPGQSPKALIYSASYRYSGVPDHFTGSGSGTDFTLTISNVQSADLAEYFCQQYNNYPWTFGGGTKLEIK
# notes: also called S-chAb-45 (in complex with S); source: Expi-293 cells, co-transfected, purified (protein G column)
# Molecular target: T1, spike glycoprotein receptor-binding domain, SARS-CoV-2 (Severe acute respiratory syndrome …, UniProt P0DTC2)
# T1 construct: source: Expi293F Expression System, purified (Ni Sepharose, anti-Flag M2 agarose)
# Assay: SPR
# Settings: both partners purified
binder,measurement,value
B1,Kd,< 0.5 nM
